The chains behind the UniProt entries cited, without tags or fusion partners. Residues count along the entry.
UniProt P11439, 430-638 limits assumed: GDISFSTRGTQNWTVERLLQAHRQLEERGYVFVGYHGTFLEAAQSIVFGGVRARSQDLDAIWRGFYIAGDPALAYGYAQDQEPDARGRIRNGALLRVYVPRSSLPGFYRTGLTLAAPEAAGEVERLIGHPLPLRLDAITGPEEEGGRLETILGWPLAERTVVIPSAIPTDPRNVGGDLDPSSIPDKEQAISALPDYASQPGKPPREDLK
UniProt Q5EK40, 33-666 limits assumed: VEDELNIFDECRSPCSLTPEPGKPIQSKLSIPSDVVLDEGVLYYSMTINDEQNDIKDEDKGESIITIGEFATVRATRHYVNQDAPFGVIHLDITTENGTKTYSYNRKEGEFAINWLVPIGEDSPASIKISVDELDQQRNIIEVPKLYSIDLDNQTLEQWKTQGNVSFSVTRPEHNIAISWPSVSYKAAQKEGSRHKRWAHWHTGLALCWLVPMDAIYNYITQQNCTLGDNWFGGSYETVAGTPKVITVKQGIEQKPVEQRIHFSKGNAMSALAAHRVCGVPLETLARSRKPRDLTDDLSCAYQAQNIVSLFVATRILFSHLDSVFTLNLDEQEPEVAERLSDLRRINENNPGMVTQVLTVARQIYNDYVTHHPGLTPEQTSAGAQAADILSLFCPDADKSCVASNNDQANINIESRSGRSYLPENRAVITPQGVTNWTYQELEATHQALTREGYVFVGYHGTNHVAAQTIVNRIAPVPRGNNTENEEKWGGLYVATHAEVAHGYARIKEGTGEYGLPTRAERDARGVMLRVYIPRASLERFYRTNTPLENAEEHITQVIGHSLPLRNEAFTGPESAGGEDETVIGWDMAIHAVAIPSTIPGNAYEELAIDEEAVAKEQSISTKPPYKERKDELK

In patent US20120142682A1, “ANT[…] INHIBITING BACTERIAL MONO-ADP-RIBOSYLT[…]” (UNIVERSITY OF GUELPH, priority 2010, published 2012):

Experiments:
[1] = tested on: ExoA intoxicated C38 cells; experiment: Inhibitor cytoprotection in mammalian cells (increase of ExoA LD50); settings: compound 50 μM; scored by ability to increase the LD50 of ExoA
[2] = tested on: Saccharomyces cerevisiae cells expressing the catalytic domain of P. aeruginosa ExoA (ExoAc); experiment: Yeast-based compound screen; settings: compound 50 μM; w303 strain; growth restored
[3] = tested on: C38 cells in the presence of 650 ng/mL of ExoA; experiment: Determination of half-maximal effective concentration (EC50) in C38 cells; settings: 650 ng/ml ExoA (10-times LD50), 96 h; NAP and V30 with 0.5% DMSO
WT ExoAc = WT ExoAc (Pseudomonas aeruginosa, UniProt P11439); experiment: Binding affinity by quenching of intrinsic Trp fluorescence; set-up: species or system P. aeruginosa; settings: first (high affinity) value where two are printed
cholix toxin = cholix toxin (Vibrio cholerae, UniProt Q5EK40); experiment: IC50 determination for inhibitory compounds (ADP-ribosyltransferase activity, ε-NAD, eEF2); type: biochemical; settings: calculated from IC50 (Cheng-Prusoff); [NAD+] 300 μM, KM 45 μM

O=C(CCN1CCCCC1)N1CCc2[nH]c(=O)c3cc(F)ccc3c2C1
Protection in C38 cells [1]: ++++ (Compounds capable of protecting C38 cells from ExoA concentrations greater than 1000 ng/mL were scored (++++)) | Protection in Yeast [2]: − (Compounds showing less than 5% growth were scored (−)) | EC50 [3]: 3.4 µM | Kd (WT ExoAc): 1100 nM | Ki (cholix toxin): 80 nM
